Tested on: RAW 264.7 cells
Assay: Resazurin-based in vitro cytotoxicity assay
Assay type: cell-based
Conditions: for SI Pf3D7: CC50 Raw cells / IC50 Pf3D7; for SI PfDd2: CC50 Raw cells / IC50 PfDd2
Experimental: The cytotoxicity profile of extracts, fractions and isolated compounds was assessed using the resazurin-based assay essentially as previously described against RAW 264.7 cells duly cultivated in complete Dulbecco′s Modified Eagle′s Medium (DMEM) that contain 13.5 g/L of DMEM (Sigma Aldrich), 10% fetal bovine serum (Sigma Aldrich), 0.2% sodium bicarbonate (w/v) (Sigma Aldrich) and 50 μg/mL of gentamicin (Sigma Aldrich). Globally, macrophages (Raw cells) were seeded into 96-well cell-culture flat-bottomed plates at a density of 10^4 cells in 100 μL of complete medium/well and placed in incubation for 24 h at 37℃, and 5% CO2 allowing cell adhesion. Following cell adhesion, ten microliters of each serially diluted test sample solution was added to assay plates and left in incubation for 48 h under the same experimental conditions. Growth control (1% DMSO-100% growth) and positive control wells (podophyllotoxin at 20 μM) were included in the experimental plates. Cell proliferation was checked by adding 10 μL of a stock solution of resazurin (0.15 mg/mL in sterile PBS) to each well followed by an additional incubation of 4 h in the same culture conditions. Fluorescence was then read using Tecan Infinite M200 fluorescence multiwell plate reader (Tecan) at an excitation/emission of 530/590 nm. The results were expressed as 50% cytotoxic concentrations (CC50) and selectivity indices (CC50 Mammalian cell/IC50 Pf3D7) were calculated for each test substance.

Row | Structure (SMILES) | SI Pf3D7 | SI PfDd2
1 | COc1c(O)cc2c(=O)oc3c(OC)c(O)cc4c(=O)oc1c2c34 [compound 3, 3,3′-O-dimethylellagic acid] | > 85 | > 74
2 | COc1c(O)cc2c(=O)oc3c(OC)c(OC4OCC(O)C(OC(=O)c5cc(O)c(O)c(O)c5)C4O)cc4c(=O)oc1c2c34 [compound 5, 3,3″-di-O-methylellagic acid 4-O-(3″-galloyl)-β-D-xylopyranoside] | > 87 | 
3 | CCOC(=O)c1cc(O)c(O)c(O)c1 [compound 10, Ethyl gallate] | > 87 | > 35

Reference: PMC10303846, “In vitro antiplasmodial activity and toxicological profile of extracts, fractions and chemical constituents of leaves and stem bark from Dacryodes edulis (Burseraceae)” (BMC Complementary Medicine and Therapies, 2023)
